Results of unrelated studies side by side (data: NIAID ChemDB).

Shared fields: whole-cell or culture tests; species: HIV-1; read-out: EC50

Two numbers with a dash give a range or band.

| compound | cell line | setting | changes | strain or isolate | value |
|---|---|---|---|---|---|
| O=C(OC[C@@H]1OC(=O)c2ccccc21)c1ccccc1 | MT-4 |  |  |  | >10 µM |
| Nc1ccn([C@H]2CC[C@@H](CO)O2)c(=O)n1 | CEM |  |  | IIIB | 0.05 µM |
| C[C@]1(/C=C/P(=O)(O)O)CO[C@@H](n2cnc3c(N)ncnc32)C1 | PBMC |  |  | LAI | 50.6 µM |
| CC1=C\[C@@H](C)[C@@H](CC(C)C)OC(=O)/C=C/C=C/C=C/CCCCC[C@@H](OS(=O)(=O)O)[C@H](O)[C@]2(O)O[C@@H](C[C@H](O)[C@H]2C)[C@@H](C)C(=O)\C=C\1 | TZM-bl |  |  | LAI | 0.41 µM |
| Cc1cn([C@H]2C[C@H](N=[N+]=[N-])[C@@H](COC(=O)C(=O)O)O2)c(=O)[nH]c1=O | PBMC |  |  |  | 0.025 µg/mL |
| Nc1nc(N)c2ncn([C@H]3CO[C@@H](CO)O3)c2n1 | PBMC |  |  | LAI | 2.1 µM |
| Cc1cc2c(C(C)C)c(O)c(O)c(/C=N/O)c2c(O)c1-c1c(C)cc2c(C(C)C)c(O)c(O)c(/C=N/O)c2c1O | PBMC |  |  | LAV | 0.41 µM |
| CCOCn1c(Cc2ccccc2)c(C(C)C)c(=O)[nH]c1=O | MT-4 |  |  | IIIB | 0.015 µM |
| CC(C)c1nc(CN(C)C(=O)N[C@H](C(=O)N[C@@H](Cc2ccccc2)C[C@H](O)[C@H](Cc2ccccc2)NC(=O)OCc2cncs2)C(C)C)cs1 | MT-4 |  |  | HXB2 | 0.78 µM |
| Cc1cn([C@H]2C[C@H](N=[N+]=[N-])[C@@H](CO)O2)c(=O)[nH]c1=O | MT-4 |  |  |  | 0.002 µg/mL |
| Nc1ccn([C@H]2CC[C@@H](CO)O2)c(=O)n1 | MT-4 | clinical isolate | AZT-resistant (RT I50V D67N K70R I135V T215Y) | Clinical isolate | 0.65 µM |
| Oc1ccc(/C=C/c2cc(O)cc3c2[C@@H](c2cc(O)cc(O)c2)[C@H](c2ccc(O)c(O)c2)O3)cc1 |  |  |  | IIIB | 10 µg/mL |
| CC(C)=CCN1Cc2cc(Cl)cc3[nH]c(=S)n(c23)C[C@@H]1C | MT-4 |  | RT-L74V |  | <1.5 µM |
| Nc1nc2c(ncn2[C@H]2CO[C@@H](CO)O2)c(=O)[nH]1 | PBMC |  |  | Wild-type isolates | 0.03–0.29 µM |
| O=C1N(Cc2ccc(CO)cc2)[C@H](Cc2ccccc2)[C@H](O)CN(Cc2ccoc2)N1Cc1ccc(CO)cc1 | MT-4 |  |  |  | 0.1 µM |
| CC/C=C(\C)C[C@H](C)[C@H](O)[C@@H](C)[C@H]1O[C@@]2(C[C@@H](OC)[C@H]1C)O[C@H]([C@@H](C)[C@@H](O)[C@@H](C)/C=C/C=C/C=C/C=C/C=C/[C@@H](CC(=O)O)OC)[C@@H](C)C[C@@H]2O | TZM-bl |  |  | LAI | 0.007 µM |
| CCc1cc(NCc2nc3c(Cl)ccc(Cl)c3o2)c(=O)[nH]c1C | CEM |  |  | IIIB | 0.0143 µM |
| CC(C)(C)NC(=O)[C@@H]1C[C@@H]2CCCC[C@@H]2CN1C[C@@H](O)[C@H](Cc1ccccc1)NC(=O)[C@@H](NC(=O)COc1cccnc1)C(C)(C)S(C)(=O)=O |  |  | PR-L10I G48V V82A L90M |  | 0.015 µM |
| Cc1cc2c(C(C)C)c(O)c(O)c(C=NCCO)c2c(O)c1-c1c(C)cc2c(C(C)C)c(O)c(O)c(C=NCCO)c2c1O | PBMC |  |  | LAV | 6 µM |
| Cc1cn([C@H]2CC[C@H](CO)O2)c(=O)[nH]c1=O |  |  |  |  | >1000 µM |
| Cc1cn([C@H]2C[C@H](N=[N+]=[N-])[C@@H](CO)O2)c(=O)[nH]c1=O |  |  |  |  | 0.0061 µg/mL |
| Nc1ncnc2c1c1c(=O)[nH]c(=O)[nH]c1n2[C@@H]1O[C@H](COC(=O)c2ccccc2)[C@@H](O)[C@H]1O | PBMC |  |  | LAI | 5.7 µM |
| Nc1ncnc2c1ncn2CCOCP(=O)(O)O | MT-4 |  |  |  | 6.5 µM |
| CCCC1(CCC)CC(O)=C(C(CC)c2cccc(NS(=O)(=O)c3ccc(C#N)cc3)c2)C(=O)O1 | H9 |  |  | IIIB | 1.9 µM |
| O=C1N(Cc2ccc(CO)cc2)[C@H](Cc2ccccc2)[C@H](O)[C@@H](O)[C@@H](Cc2ccccc2)N1Cc1ccc(CO)cc1 | MT-4 |  |  |  | 0.03 µM |
| Cc1cccc2c1O[P@](=O)(OC[C@@H]1C=C[C@H](n3cc(C)c(=O)[nH]c3=O)O1)OC2 | CEM + CEM/O |  |  |  | 0.057 µM |
| CC(C)CN(C[C@@H](O)[C@H](Cc1ccccc1)NC(=O)[C@@H](NC(=O)CNCc1cccc(F)c1)C(C)(C)C)S(=O)(=O)c1ccc(N)cc1 | MT-2 |  |  | RF | <0.0057 µM |
| Cc1ccnc2c1NC(=O)c1cccnc1N2C1CC1 | PBMC |  | RT-A98G Y181C | BCF08 | 10 µM |
| CCC(c1ccccc1)c1c(O)c2ccccc2oc1=O | H9 |  |  | IIIB | 100–300 µM |
| Cc1cn([C@H]2C[C@H](N=[N+]=[N-])[C@@H](CO)O2)c(=O)[nH]c1=O | MT-2 |  |  | LAI | ~1 µM |
| Cc1cc2c(C(C)C)c(O)c(O)c(C=Nc3ccccc3)c2c(O)c1-c1c(C)cc2c(C(C)C)c(O)c(O)c(C=Nc3ccccc3)c2c1O | PBMC |  |  | LAV | 91.5 µM |
| Cc1cn([C@H]2C[C@H](N=[N+]=[N-])[C@@H](CO)O2)c(=O)[nH]c1=O | MONO/MACRO + Monocytes/macrophages |  |  | BaL | 0.056 µg/mL |
| CCCC1(CCc2ccc(F)cc2)CC(O)=C(C(CC)c2cccc(NS(=O)(=O)c3ccc(C#N)cn3)c2)C(=O)O1 | H9 |  |  | IIIB | 0.2 µM |
| Cc1cn([C@H]2C[C@H](N=[N+]=[N-])[C@@H](CO)O2)c(=O)[nH]c1=O | CEM |  |  | IIIB | 0.008 µM |
| COc1cc(CN2C(=O)N(CC3CC3)N(Cc3ccccc3)C[C@@H](O)[C@H]2Cc2ccccc2)ccc1O | MT-4 |  |  |  | 0.17 µM |
| Cc1cn([C@H]2C[C@H](F)[C@H](CO)O2)c(=O)[nH]c1=O |  |  |  |  | >1000 µM |
| C=C[C@@]1(CO)CO[C@H](n2cc(C)c(=O)[nH]c2=O)C1 | MT-4 |  |  |  | 60.2 µg/mL |
| Cc1cn([C@H]2C[C@H](N=[N+]=[N-])[C@@H](COC(=O)C(=O)N[C@@H](CC(C)C)C(=O)O)O2)c(=O)[nH]c1=O | PBMC |  |  |  | 0.01 µg/mL |
| CC(C)=CCN1Cc2c(F)ccc3[nH]c(=S)n(c23)C[C@@H]1C | CEM |  |  |  | 0.0365 µM |
| C[C@H](Cn1cnc2c(=O)[nH]c(N)nc21)OCP(=O)(O)O |  |  |  |  | 1.5 µM |
| CCCC1(CCC)CC(O)=C(C(CC)c2cccc(NS(=O)(=O)c3ccc(F)cc3)c2)C(=O)O1 | H9 |  |  | IIIB | 1.6 µM |
| CCOP(=O)(COc1ccc(C[C@H](NC(=O)O[C@H]2CO[C@H]3OCC[C@H]32)[C@H](O)CN(CC(C)C)S(=O)(=O)c2ccc(OC)cc2)cc1)OCC | MT-2 + MT-4 |  |  | IIIB | 0.0035 µM |
| Cc1cc2c(C(C)C)c(O)c(O)c(C=NCCS(=O)(=O)O)c2c(O)c1-c1c(C)cc2c(C(C)C)c(O)c(O)c(C=NCCS(=O)(=O)O)c2c1O | PBMC |  |  | LAV | 17.3 µM |
| CCC(C1=C(O)CC(CCc2ccccc2)(CCc2ccccc2)OC1=O)c1cccc(NS(=O)(=O)c2ccc(C#N)cn2)c1 | H9 |  |  | IIIB | 0.19 µM |
| Cc1cn([C@H]2C[C@H](N=[N+]=[N-])[C@@H](CO)O2)c(=O)[nH]c1=O | PBMC |  | RT-A98G K103R | BCF06 | 0.03 µM |
| CC[C@H]1CC[C@@H](O)[C@@H](OC)CCCC[C@@H](c2ccccc2)OC(=O)[C@@H](C)[C@@]2(O)O[C@@H]1[C@@H](C)[C@H](O)[C@H]2OC | TZM-bl |  |  | LAI | 0.3 µM |
| Cc1cc(C#N)cc(C)c1Oc1cc(Nc2ccc(C#N)cc2)c(N)cc1[N+](=O)[O-] | MT-2 |  |  | RF | 18.9 µM |
| C[C@]1(/C=C/P(=O)(O)O)CO[C@@H](n2cnc3c(=O)[nH]c(N)nc32)C1 | PBMC |  |  | LAI | 70 µM |
| C=C[C@@]1(CO)CO[C@@H](n2ccc(=O)[nH]c2=O)C1 | MT-4 |  |  |  | 78.9 µg/mL |
| CCCC1(CCc2ccccc2)CC(O)=C(C(c2cccc(NS(=O)(=O)c3ccc(C#N)cn3)c2)C2CC2)C(=O)O1 | H9 |  |  | IIIB | 0.17 µM |
| CC(C)(C)NC(=O)[C@@H]1C[C@@H]2CCCC[C@@H]2CN1C[C@@H](O)[C@H](Cc1ccccc1)NC(=O)[C@H](CC(N)=O)NC(=O)c1ccc2ccccc2n1 | PBMC |  | PR-L10V K20C M36I L63R A71V | BCF07 | 0.0125 µM |
| CCCC1(CCC)CC(O)=C(C(CC)c2cccc(NS(=O)(=O)c3ccc(C(F)(F)F)cn3)c2)C(=O)O1 | H9 |  |  | IIIB | 0.16 µM |
| Cc1cn([C@@H]2O[C@H](CO[Si](C)(C)C(C)(C)C)C3(OS(=O)(=O)C=C3N)[C@H]2O[Si](C)(C)C(C)(C)C)c(=O)n(C)c1=O | CEM |  |  | IIIB | 0.03 µM |

For reference, 7 entries again:

compound	cell line	setting	changes	strain or isolate	value
CCc1cc(NCc2nc3c(Cl)ccc(Cl)c3o2)c(=O)[nH]c1C	CEM			IIIB	0.0143 µM
CCCC1(CCC)CC(O)=C(C(CC)c2cccc(NS(=O)(=O)c3ccc(C(F)(F)F)cn3)c2)C(=O)O1	H9			IIIB	0.16 µM
CC/C=C(\C)C[C@H](C)[C@H](O)[C@@H](C)[C@H]1O[C@@]2(C[C@@H](OC)[C@H]1C)O[C@H]([C@@H](C)[C@@H](O)[C@@H](C)/C=C/C=C/C=C/C=C/C=C/[C@@H](CC(=O)O)OC)[C@@H](C)C[C@@H]2O	TZM-bl			LAI	0.007 µM
CCOP(=O)(COc1ccc(C[C@H](NC(=O)O[C@H]2CO[C@H]3OCC[C@H]32)[C@H](O)CN(CC(C)C)S(=O)(=O)c2ccc(OC)cc2)cc1)OCC	MT-2 + MT-4			IIIB	0.0035 µM
Nc1nc2c(ncn2[C@H]2CO[C@@H](CO)O2)c(=O)[nH]1	PBMC			Wild-type isolates	0.03–0.29 µM
Cc1cn([C@H]2C[C@H](N=[N+]=[N-])[C@@H](CO)O2)c(=O)[nH]c1=O	CEM			IIIB	0.008 µM
CC(C)CN(C[C@@H](O)[C@H](Cc1ccccc1)NC(=O)[C@@H](NC(=O)CNCc1cccc(F)c1)C(C)(C)C)S(=O)(=O)c1ccc(N)cc1	MT-2			RF	<0.0057 µM

Rows are shuffled and stem from different studies. ECn: concentration that inhibits the pathogen or its effect by n%. An empty or dashed field is not shown.